PubChem BioAssay AID504761 – Drosophila RNAi Screening Center – 2011

Aim: 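Insect host genes that dengue virus relies on to spread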 (primary screen)
Cells: D.Mel-2 cells from Drosophila
Reagents: long dsRNA against Drosophila genes
Treatment: infection with dengue virus type 2; dose and infection time not stated
Detection: 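Cells stained for dengue envelope protein and imaged; percent of infected cells per well on duplicate plates, ranked by infection, with stained nuclei counted for cell number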
Scale: infection score: higher = more virus-infected cells
Call rule: 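Low infection ranks in the two replicates (chance level up to 0.065) followed by a retest with a 1.5-fold or larger significant decrease, p below 0.05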
Calls: active = confirmed: knock-down lowers infection; inactive = not picked or not confirmed
The deposit covers about 22,000 reagents; this is a random part of those that have a named target and a result. In the full data, 116 (0.52%) are marked active. 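Calls depend on retest data that are not deposited; infection was ranked per plate without normalising between plates; the unit of the infection score is not given.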 The numbers tell different reagents against one gene apart. Names joined by + are all predicted targets of the reagent. Not all columns of the deposit are shown. Not stated in the record: the amount of reagent, the time to read-out.

For MED15 #1, what was measured?
infection score, replicate 1: 4.41; call: inactive

Which result is listed for MED15 #2?
infection score, replicate 1: 1.09; call: inactive

Which result is listed for BigH1 #1?
infection score, replicate 1: 3.67; call: inactive

With BigH1 #2, what does the deposit list?
infection score, replicate 1: 19.3; call: inactive

For fz4, what was measured?
infection score, replicate 1: 1.87; call: inactive

How did the screen score Cpr47Ef #1?
infection score, replicate 1: 29.9; call: inactive

Which result is listed for Cpr47Ef #2?
infection score, replicate 1: 1.8; call: inactive

How did the screen score Cpr47Ef #3?
infection score, replicate 1: 4.34; call: inactive

What did the screen give for Cpr47Ef #4?
infection score, replicate 1: 9.91; call: inactive

Which result is listed for Pal1 + Pdrg1?
infection score, replicate 1: 6.77; call: inactive

What did the screen give for Spn42Dd #1?
infection score, replicate 1: 16.1; call: inactive

For Spn42Dd #2, how do the results read?
infection score, replicate 1: 6.09; call: inactive

Part of the list above in another layout.
predicted target | reagent | infection score, replicate 1 | call
MED15 | 1 | 4.41 | inactive
MED15 | 2 | 1.09 | inactive
